{"source": "paper PMC8236845", "target": "binding of recombinant, trimeric SARS-CoV-2 spike protein to recombinant human ACE2 (Severe acute respiratory syndrome coronavirus 2, UniProt P0DTC2, K986P/R682G/R683S/R685S/V987P)", "parameters": "species or system SARS-CoV-2 / human", "details": "read-out: EC50 (corrected)", "data": [{"substance": "Avermectin B1", "values": [{"measurement": "EC50", "value": 18, "unit": "µM"}]}]}
